PubChem BioAssay AID1259414, Drosophila RNAi Screening Center, 2018
The screen tested about 24,000 reagents; below is a random part of those that have a named target and a result. Over the whole deposit, about 1,210 (5%) are marked active. 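Inactive calls also include excluded dsRNAs with several or no targets, genes unexpressed in JW18, and well A1, regardless of score.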 A plus sign joins genes that one reagent is predicted to hit. Reagent sequences are not shown.

Test: 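Host factors increasing or decreasing Wolbachia levels in cultured fly cells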 (primary screen)
System: Drosophila JW18 cells infected with Wolbachia
Knock-down reagent: long dsRNA against Drosophila genes, 0.25 µg dsRNA per well of a 384-well plate
Duration: 5 days
Challenge: cells persistently infected with Wolbachia before knock-down; no added drug
Measured: 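Imaged fluorescence in situ signal for Wolbachia 23S rRNA per DAPI-counted host cell, given as a robust z-score within each plate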
Reading the numbers: Wolbachia per cell robust z: higher = more Wolbachia per host cell than the plate typical
Rule for the call: 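Hit when robust z is 1.5 or more, or -1.5 or less, in at least two of three replicates; excludes dsRNAs with several or no targets, genes not expressed in JW18 and well A1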

{"predicted target": "sav", "dsRNA": "DRSC14681", "Wolbachia per cell robust z, rep 1": 1.06, "Wolbachia per cell robust z, rep 2": 0.606, "Wolbachia per cell robust z, rep 3": 0.166, "Outcome": "inactive"}
{"predicted target": "sav", "dsRNA": "DRSC14682", "Wolbachia per cell robust z, rep 1": 0.143, "Wolbachia per cell robust z, rep 2": 0.558, "Wolbachia per cell robust z, rep 3": 0.591, "Outcome": "inactive"}
{"predicted target": "CG31516", "dsRNA": "DRSC11994", "Wolbachia per cell robust z, rep 1": 0.402, "Wolbachia per cell robust z, rep 2": 0.137, "Wolbachia per cell robust z, rep 3": -0.878, "Outcome": "inactive"}
{"predicted target": "Mondo", "dsRNA": "DRSC02668", "Wolbachia per cell robust z, rep 1": -2.2, "Wolbachia per cell robust z, rep 2": -3.76, "Wolbachia per cell robust z, rep 3": -3.23, "Outcome": "inactive"}
{"predicted target": "Mondo", "dsRNA": "DRSC22006", "Wolbachia per cell robust z, rep 1": -0.309, "Wolbachia per cell robust z, rep 2": -0.359, "Wolbachia per cell robust z, rep 3": -0.596, "Outcome": "inactive"}
{"predicted target": "Mondo", "dsRNA": "DRSC26287", "Wolbachia per cell robust z, rep 1": 0.321, "Wolbachia per cell robust z, rep 2": -1.01, "Wolbachia per cell robust z, rep 3": -4.22, "Outcome": "inactive"}
{"predicted target": "CG42537", "dsRNA": "DRSC12519", "Wolbachia per cell robust z, rep 1": -0.595, "Wolbachia per cell robust z, rep 2": 0.681, "Wolbachia per cell robust z, rep 3": 0.267, "Outcome": "inactive"}
{"predicted target": "PIG-N", "dsRNA": "DRSC06837", "Wolbachia per cell robust z, rep 1": 0.104, "Wolbachia per cell robust z, rep 2": -0.996, "Wolbachia per cell robust z, rep 3": -0.563, "Outcome": "inactive"}
{"predicted target": "Nab2", "dsRNA": "DRSC14158", "Wolbachia per cell robust z, rep 1": 0.349, "Wolbachia per cell robust z, rep 2": 0.784, "Wolbachia per cell robust z, rep 3": 0.334, "Outcome": "inactive"}
{"predicted target": "Nab2", "dsRNA": "DRSC27135", "Wolbachia per cell robust z, rep 1": 0.598, "Wolbachia per cell robust z, rep 2": -0.0963, "Wolbachia per cell robust z, rep 3": -2.87, "Outcome": "inactive"}
{"predicted target": "wap", "dsRNA": "DRSC20626", "Wolbachia per cell robust z, rep 1": 0.363, "Wolbachia per cell robust z, rep 2": -0.0465, "Wolbachia per cell robust z, rep 3": 0.366, "Outcome": "inactive"}
{"predicted target": "CG32462 + asRNA:CR43426", "dsRNA": "DRSC11851", "Wolbachia per cell robust z, rep 1": 0.879, "Wolbachia per cell robust z, rep 2": 0.263, "Wolbachia per cell robust z, rep 3": -2.3, "Outcome": "inactive"}
{"predicted target": "Obp18a", "dsRNA": "DRSC19736", "Wolbachia per cell robust z, rep 1": 0.935, "Wolbachia per cell robust z, rep 2": 0.392, "Wolbachia per cell robust z, rep 3": 0.0491, "Outcome": "inactive"}
{"predicted target": "Acadvl", "dsRNA": "DRSC07022", "Wolbachia per cell robust z, rep 1": -0.495, "Wolbachia per cell robust z, rep 2": -0.413, "Wolbachia per cell robust z, rep 3": 0.0555, "Outcome": "inactive"}
{"predicted target": "Acadvl", "dsRNA": "DRSC26484", "Wolbachia per cell robust z, rep 1": -1.08, "Wolbachia per cell robust z, rep 2": 0.157, "Wolbachia per cell robust z, rep 3": 0.122, "Outcome": "inactive"}
{"predicted target": "CG17493", "dsRNA": "DRSC03798", "Wolbachia per cell robust z, rep 1": -0.217, "Wolbachia per cell robust z, rep 2": 0.716, "Wolbachia per cell robust z, rep 3": -5.47, "Outcome": "inactive"}
{"predicted target": "CG42496 + Ppcdc", "dsRNA": "DRSC03886", "Wolbachia per cell robust z, rep 1": 0.394, "Wolbachia per cell robust z, rep 2": 0.165, "Wolbachia per cell robust z, rep 3": 0.46, "Outcome": "inactive"}
{"predicted target": "sip3", "dsRNA": "DRSC15402", "Wolbachia per cell robust z, rep 1": 1.74, "Wolbachia per cell robust z, rep 2": 1.77, "Wolbachia per cell robust z, rep 3": 1.08, "Outcome": "active"}
{"predicted target": "sip3", "dsRNA": "DRSC29484", "Wolbachia per cell robust z, rep 1": 0.993, "Wolbachia per cell robust z, rep 2": 1.42, "Wolbachia per cell robust z, rep 3": 1.71, "Outcome": "inactive"}
{"predicted target": "mtsh", "dsRNA": "DRSC03070", "Wolbachia per cell robust z, rep 1": -0.643, "Wolbachia per cell robust z, rep 2": -0.854, "Wolbachia per cell robust z, rep 3": -0.129, "Outcome": "inactive"}
{"predicted target": "ninaB", "dsRNA": "DRSC16807", "Wolbachia per cell robust z, rep 1": -0.2, "Wolbachia per cell robust z, rep 2": -1.81, "Wolbachia per cell robust z, rep 3": -0.109, "Outcome": "inactive"}
{"predicted target": "ninaB", "dsRNA": "DRSC27875", "Wolbachia per cell robust z, rep 1": -1.8, "Wolbachia per cell robust z, rep 2": 0.203, "Wolbachia per cell robust z, rep 3": -1.63, "Outcome": "inactive"}
{"predicted target": "Prosalpha7", "dsRNA": "DRSC07516", "Wolbachia per cell robust z, rep 1": 1.06, "Wolbachia per cell robust z, rep 2": -2.05, "Wolbachia per cell robust z, rep 3": 2.32, "Outcome": "inactive"}
{"predicted target": "Prosalpha7", "dsRNA": "DRSC29365", "Wolbachia per cell robust z, rep 1": 2.6, "Wolbachia per cell robust z, rep 2": 1.71, "Wolbachia per cell robust z, rep 3": 2.11, "Outcome": "active"}

Part of the list above, showing only “Wolbachia per cell robust z, rep 1”.
Obp18a [DRSC19736] = 0.935
Acadvl [DRSC07022] = -0.495
